Pooled drug test results. Numbers come from NIAID ChemDB, via PubChem.

Common to all: growth or infection tests

ECn: concentration that inhibits the pathogen or its effect by n%.

compound | organism | strain | mutations | cell line | read by | measure | dose | value
CN1CCC[C@]1(N)Cn1c(Cn2nnc3ccccc32)nc2ccccc21 | Respiratory syncytial virus | LONG |  | HEP-2 |  | inhibition | 4 µg/mL | 54%
Nc1nc2c(ncn2COC(CO)CO)c(=O)[nH]1 | Herpes simplex virus 1 | KOS PMEA-resistant |  | HEL | cytopathic effect | EC50 |  | 0.004 µg/mL
N[C@@H](C(=O)N[C@@H]1C(=O)N2C(C(=O)O)=C(Cl)CS[C@H]12)c1ccccc1 | Haemophilus influenzae | 38 strains (ampicillin-susceptible) |  |  |  | MIC50 |  | 2 µg/mL
N#Cc1cc2[nH]c3ccccc3c2n(-c2ccc([N+](=O)[O-])cc2)c1=O | HIV-1 | Recombinant | RT-A62T V118I M184V | HeLa | luciferase | fold resistance |  | 6.3
CCN(CC)CCCC(C)Nc1ccnc2cc(Cl)ccc12 | Cryptosporidium parvum | Calf isolate |  | L929 |  | inhibition | 0.032 µg/mL | 21.14%
CO[C@@H]1[C@@H](OC(N)=O)[C@@H](O)[C@H](Oc2ccc3c(O)c(NC(=O)c4ccc(O)c(CC=C(C)C)c4)c(=O)oc3c2C)OC1(C)C | Epstein-Barr virus |  |  | Akata-Bx1 | PCR | EC50 |  | 68.6 µM
C[C@@]1(O)[C@H](O)[C@@H](CO)O[C@H]1n1ccc2c(N)ncnc21 | Hepatitis C virus |  |  | HepG2-T5B | MTT | inhibition | 2 µg/mL | 6.15%
CO[C@@H]1C[C@@H](C[C@H]2CC[C@H](C)[C@H]([C@@H](C)C(=O)O)O2)O[C@]2(O[C@](C)([C@H]3CC[C@@](C)([C@@H]4O[C@@H]([C@H]5O[C@@](O)(CO)[C@H](C)C[C@@H]5C)C[C@@H]4C)O3)C[C@H]2C)[C@@H]1C | Cryptosporidium parvum | Calf isolate |  | L929 |  | EC50 |  | <0.8 µg/mL
CCC[C@H](NC(=O)[C@@H]1[C@H]2CCC[C@H]2CN1C(=O)[C@@H](NC(=O)[C@@H](NC(=O)c1cnccn1)C1CCCCC1)C(C)(C)C)C(=O)C(=O)NC1CC1 | Hepatitis C virus | JFH1Res | L1062M R1181K | Huh7.5 | antigen | EC50 |  | 4.763 µM
CN(C)CCCn1c(Cn2nc3ccccc3n2)nc2ccccc21 | Respiratory syncytial virus | LONG |  | HEP-2 |  | inhibition | 4 µg/mL | 89%
O=C(O)[C@H]1O[C@@H](Oc2cc3oc(-c4ccccc4)cc(=O)c3c(O)c2O)[C@H](O)[C@@H](O)[C@@H]1O | Adenovirus | TYPE 8 |  | BCC-1/KMC | cytopathic effect | EC50 |  | >50 µg/mL
Nc1cc(OC[C@H](CO)OCP(=O)(O)O)nc(N)n1 | Sindbis virus |  |  |  | cytopathic effect | EC50 |  | >15 µM
CCn1nc(C(=O)O)c(=O)c2cc3c(cc21)OCO3 | Vittaforma corneae |  |  |  |  | MIC50 |  | 49 µM
NC(=O)c1nc[nH]c1C(N)=O | Cryptosporidium parvum | Human isolate |  | L929 |  | inhibition | 0.8 µg/mL | 41.71%
Cc1onc(-c2ccccc2)c1C(=O)N[C@@H]1C(=O)N2[C@@H]1SC(C)(C)[C@@H]2C(=O)O | Staphylococcus aureus | 25 strains (ofloxacin-resistant) |  |  |  | MIC50 |  | >128 µg/mL
CCn1cc(C(=O)O)c(=O)c2cc(F)c(N3CCNCC3)nc21 | Vittaforma corneae |  |  |  |  | MIC50 |  | 60 µM
O=c1cnn([C@@H]2O[C@H](CO)[C@@H](O)[C@H]2O)c(=O)[nH]1 | West Nile virus | New York isolates |  | VERO | cytopathic effect | EC50 |  | 0.9 µg/mL
CCCC(=O)O[C@H]1CN2CC[C@H](O)[C@@H]2[C@@H](O)[C@@H]1O | Bovine viral diarrhea virus |  |  | MDBK | cytopathic effect | EC50 |  | 47.2 µM
CC(=O)NC[C@H]1CN(c2ccc(N3CCOCC3)c(F)c2)C(=O)O1 | Staphylococcus aureus | 25 strains (methicillin-susceptible) |  |  |  | MIC50 |  | 2 µg/mL
Nc1ccn([C@@H]2CS[C@H](CO)O2)c(=O)n1 | Bovine viral diarrhea virus |  |  | MDBK | cytopathic effect | EC50 |  | >1000 µM
Cc1c(N2C[C@@H](F)[C@@H](C3(N)CC3)C2)c(F)c(N)c2c(=O)c(C(=O)O)cn([C@@H]3C[C@@H]3F)c12 | Staphylococcus aureus | 25 strains (ofloxacin-resistant) |  |  |  | MIC50 |  | 0.06 µg/mL
C[C@H]1CN(c2c(F)cc3c(=O)c(C(=O)O)cn(C4CC4)c3c2OC(F)F)CCN1 | Streptococcus pneumoniae | 30 strains |  |  |  | MIC50 |  | 0.25 µg/mL
C[C@H]1[C@H](C)CC[C@]2(C(=O)O)CC[C@]3(C)C(=CC[C@@H]4[C@@]5(C)CC[C@H](O)C(C)(C)[C@@H]5CC[C@]43C)[C@H]12 | Adenovirus | TYPE 3 |  | BCC-1/KMC | cytopathic effect | EC50 |  | >20 µg/mL
NC1CCN(c2nc3c(cc2F)c(=O)c(C(=O)O)cn3-c2ccc(F)cc2F)C1 | Staphylococcus aureus | 25 strains (ofloxacin-resistant) |  |  |  | MIC90 |  | 32 µg/mL
Cc1cn([C@H]2C[C@H](N=[N+]=[N-])[C@@H](CO)O2)c(=O)[nH]c1=O | HIV-1 | NRTI resistant | RT-M41L D67N M184V L210W T215Y | HeLa | luciferase | EC50 |  | 0.22 µM
CCCc1ncc(C[n+]2ccccc2C)c(N)n1 | Cryptosporidium parvum | Calf isolate |  | L929 |  | inhibition | 0.8 µg/mL | 36.6%
Nc1ncnc2c1ncn2C[C@@H](CO)OCP(=O)(O)O | Reovirus | TYPE 1 |  |  | cytopathic effect | EC50 |  | >50 µM
O=C(O)/C=C/c1ccc(O)c(O)c1 | Adenovirus | TYPE 3 |  | BCC-1/KMC | cytopathic effect | EC50 |  | 14.2 µg/mL
CCCCN(CCCC)CCC(O)c1cc2c(Cl)cc(Cl)cc2c2cc(C(F)(F)F)ccc12 | Cryptosporidium parvum | Calf isolate |  | L929 |  | inhibition | 0.8 µg/mL | -23.12%
OCC1=C[C@@H](O)[C@@H]2C=CO[C@@H](O[C@@H]3O[C@H](CO)[C@@H](O)[C@H](O)[C@H]3O)[C@H]12 | Adenovirus | TYPE 8 |  | BCC-1/KMC | cytopathic effect | EC50 |  | >200 µg/mL
O=c1cnn([C@@H]2O[C@H](CO)[C@@H](O)[C@H]2O)c(=O)[nH]1 | Dengue virus | TYPE 2 (NGC) |  | VERO | virus yield | EC50 |  | <2.1 µg/mL
O[C@H]1[C@H](O)[C@@H](O)CN2CC[C@H](O)[C@H]12 | Bovine viral diarrhea virus |  |  | MDBK | cytopathic effect | EC50 |  | 366.7 µM
CN(C)[C@@H]1C(=O)C(C(N)=O)=C(O)[C@@]2(O)C(=O)C3=C(O)c4c(O)cccc4[C@@](C)(O)[C@H]3[C@H](O)[C@@H]12 | Cryptosporidium parvum | Calf isolate |  | L929 |  | inhibition | 0.032 µg/mL | -2.29%
Cc1cc(S(N)(=O)=O)ccc1NC(=O)COc1ccc(Cl)cc1C(=O)c1cc(Cl)cc(C#N)c1 | HIV-1 | NNRTI-resistant (RT Y188C) | RT-Y188C | MAGI | β-galactosidase | fold resistance |  | 0.21
C[C@@H](O)[C@H]1C(=O)N2C(C(=O)O)=C(SCCN=CN)C[C@H]12 | Staphylococcus aureus | 25 strains (methicillin-susceptible) |  |  |  | MIC50 |  | 0.06 µg/mL
O=c1ccc2cccc(O)c2[nH]1 | Vittaforma corneae |  |  |  |  | MIC50 |  | 52 µM
N=C(N)c1cn([C@@H]2O[C@H](CO)[C@@H](O)[C@@H]2O)c2ncnc(N)c12 | Mouse cytomegalovirus | SMITH |  | MEF | plaque count | EC50 |  | 120 µM
COC(=O)N[C@H](C(=O)N1CCC[C@H]1c1ncc(-c2ccc(-c3ccc(-c4cnc([C@@H]5CCCN5C(=O)[C@@H](NC(=O)OC)C(C)C)[nH]4)cc3)cc2)[nH]1)C(C)C | Hepatitis C virus | JFH-1 |  | Huh7.5 | antigen | EC50 |  | 0.00008 µM
CC(C)(CO)C(=O)SCCOP(=O)(NCc1ccccc1)OC[C@H]1O[C@@H](n2cnc3c(=O)[nH]c(N)nc32)[C@](C)(O)[C@@H]1O | Hepatitis C virus | GT1a | L31V | Replicon cells | replicon | fold resistance |  | 1.33
CO/N=C1\CN(c2nc3c(cc2F)c(=O)c(C(=O)O)cn3C2CC2)CC1CN | Staphylococcus aureus | 24 strains (ofloxacin-susceptible) |  |  |  | MIC50 |  | 0.06 µg/mL
Cc1cn([C@H]2O[C@@H](CO)[C@H](O)[C@H]2F)c(=O)[nH]c1=O | Duck hepatitis B virus | WILD TYPE |  | HepG2 |  | EC50 |  | 0.047 µM
CCN(CC)CCCn1c(Cn2nnc3ccccc32)nc2cc([N+](=O)[O-])ccc21 | Respiratory syncytial virus | LONG |  | HEP-2 |  | inhibition | 4 µg/mL | 91%
Nc1ncnc2c1ncn2[C@@H]1O[C@H](CO)[C@@H](O)[C@@H]1O | Herpes simplex virus 1 | KOS |  | HEL | cytopathic effect | EC50 |  | 12.1 µg/mL
CCn1cc(C(=O)O)c(=O)c2cnc(N3CCNCC3)nc21 | Vittaforma corneae |  |  |  |  | MIC50 |  | >100 µM
O=C(O)P(=O)(O)O | Herpes simplex virus 1 | KOS PFA-resistant |  | HEL | cytopathic effect | EC50 |  | 127 µg/mL
CO[C@@H]1[C@H](O)[C@@H](COP(=O)(O)OP(=O)(O)OP(=O)(O)O)O[C@H]1n1ccc(N)nc1=O | Hepatitis C virus |  |  | Hep3B-T5B | MTT | inhibition | 30 µg/mL | 53.68%
Nc1ncnc2c1ncn2CCOCP(=O)(O)O | Duck hepatitis B virus | WILD TYPE |  | LMH |  | EC50 |  | 1.8 µM
CN(C)[C@@H]1C(=O)C(C(N)=O)=C(O)[C@@]2(O)C(=O)C3=C(O)c4c(O)c(NC(=O)CNc5ccccc5)cc(F)c4C[C@H]3C[C@@H]12 | Streptococcus pneumoniae | 160-tet |  |  | agar diffusion | EC50 |  | 4 µg/mL
c1cc(CN2CCCNCCNCCCNCC2)ccc1CN1CCCNCCNCCCNCC1 | HIV-1 | PCP1 CLADE C R5 CXCR6 |  | PBMC | p24 | inhibition | 0.5 µM | 34%
Cc1cn([C@@H]2O[C@H](CO)[C@@H](O)[C@@H]2O)c(=O)[nH]c1=O | Herpes simplex virus 1 | KOS BVDU-resistant |  | HEL | cytopathic effect | EC50 |  | 35 µg/mL
Nc1cc(OCCOCP(=O)(O)O)nc(N)n1 | Semliki Forest virus |  |  |  | cytopathic effect | EC50 |  | >190 µM
N/C(=N\N=C\c1ccc(Cl)cc1)N/N=C/c1ccc(Cl)cc1 | Cryptosporidium parvum | Human isolate |  | L929 |  | EC50 |  | >20 µg/mL
O=C(O)CP(=O)(O)O | Herpes simplex virus 1 | KOS ACV-resistant |  | HEL | cytopathic effect | EC50 |  | 10 µg/mL
Nc1ccn([C@@H]2CS[C@H](CO)O2)c(=O)n1 | Duck hepatitis B virus | WILD TYPE |  | LMH |  | EC50 |  | 10 µM
O=c1cc(-c2ccccc2)oc2cc(O)c(O)c(O)c12 | Adenovirus | TYPE 8 |  | BCC-1/KMC | cytopathic effect | EC50 |  | >20 µg/mL
Cn1c2ccccc2c2c1cc(C#N)c(=O)n2-c1ccc([N+](=O)[O-])cc1 | HIV-1 | NNRTI-resistant | RT-G190S | HeLa | luciferase | fold resistance |  | 1.7
Nc1ccn(C[C@@H](CO)OCP(=O)(O)O)c(=O)n1 | Herpes simplex virus 1 | KOS GCV-resistant |  | HEL | cytopathic effect | EC50 |  | 0.32 µg/mL
C#CC[C@@H](C(=O)N[C@H](/C=C/C(=O)OCC)C[C@@H]1CCNC1=O)n1cccc(NC(=O)c2cc(C)on2)c1=O | Rhinovirus | Serotype 45 |  | H1-HELA | cytopathic effect / XTT | inhibition | 0.094 µM | 90%
O=C(C[C@H]1NCCC[C@@H]1O)Cn1cnc2cc(Br)c(Cl)cc2c1=O | Cryptosporidium parvum | Calf isolate |  | L929 |  | inhibition | 0.032 µg/mL | 64.74%
COC(=O)[C@H]1[C@@H]2C[C@@H](O[C@@H]3O[C@H](C)[C@@H](O)[C@H](N)[C@@H]3O)/C=C/C=C/C=C/C=C/C=C/C=C/C=C/[C@H](C)[C@@H](O)[C@H](C)[C@H](C)OC(=O)C[C@H](O)C[C@H](O)[C@@H](O)CC[C@H](O)C[C@H](O)C[C@](O)(C[C@@H]1O)O2 | Vesicular stomatitis virus |  |  | T98G | plaque count | inhibition | 50 µg/mL | 0%
N/C(=N/O)c1cn([C@@H]2O[C@H](CO)[C@@H](O)[C@@H]2O)c2ncnc(N)c12 | Mouse cytomegalovirus | SMITH |  | MEF | plaque count | EC50 |  | 120 µM
Nc1nccc2c1ncn2[C@@H]1C[C@H](CO)[C@@H](O)[C@H]1O | Vesicular stomatitis virus |  |  | BSC-1A | cytopathic effect | EC50 |  | >400 µg/mL

A second listing of 9 rows from above:

compound	organism	strain	mutations	cell line	read by	measure	dose	value
CO[C@@H]1[C@@H](OC(N)=O)[C@@H](O)[C@H](Oc2ccc3c(O)c(NC(=O)c4ccc(O)c(CC=C(C)C)c4)c(=O)oc3c2C)OC1(C)C	Epstein-Barr virus			Akata-Bx1	PCR	EC50		68.6 µM
NC1CCN(c2nc3c(cc2F)c(=O)c(C(=O)O)cn3-c2ccc(F)cc2F)C1	Staphylococcus aureus	25 strains (ofloxacin-resistant)				MIC90		32 µg/mL
Nc1nccc2c1ncn2[C@@H]1C[C@H](CO)[C@@H](O)[C@H]1O	Vesicular stomatitis virus			BSC-1A	cytopathic effect	EC50		>400 µg/mL
Nc1nc2c(ncn2COC(CO)CO)c(=O)[nH]1	Herpes simplex virus 1	KOS PMEA-resistant		HEL	cytopathic effect	EC50		0.004 µg/mL
C[C@H]1CN(c2c(F)cc3c(=O)c(C(=O)O)cn(C4CC4)c3c2OC(F)F)CCN1	Streptococcus pneumoniae	30 strains				MIC50		0.25 µg/mL
CC(=O)NC[C@H]1CN(c2ccc(N3CCOCC3)c(F)c2)C(=O)O1	Staphylococcus aureus	25 strains (methicillin-susceptible)				MIC50		2 µg/mL
O=C(O)/C=C/c1ccc(O)c(O)c1	Adenovirus	TYPE 3		BCC-1/KMC	cytopathic effect	EC50		14.2 µg/mL
CCN(CC)CCCn1c(Cn2nnc3ccccc32)nc2cc([N+](=O)[O-])ccc21	Respiratory syncytial virus	LONG		HEP-2		inhibition	4 µg/mL	91%
CCn1cc(C(=O)O)c(=O)c2cnc(N3CCNCC3)nc21	Vittaforma corneae					MIC50		>100 µM

A number after MIC or MFC names an inhibition level or a share of isolates. An empty or dashed field is not shown. Neighbouring rows are from separate reports. Percent inhibition refers to the dose given; in toxicity tests it is the harm to the cells. Fold resistance: result on the changed form divided by that on wild type.